# Measured values taken from publication PMC8070564, “Synthesis and Antiviral Activity of Camphene Derivatives against Different Types of Viruses” (Molecules, 2021).
# How the values were obtained:
# [1] = system: rVSV-ΔG-EboV-GP; format: cell-based, Ebola pseudotype viruses
# [2] = system: rVSV-ΔG-Gn-Gc; format: cell-based, Hantaan virus strain 76–118; details: ratio CC50 / IC50
SMILES,SIEboV-GP [1],SI [2]
"CC1(C)[C@@H]2CC[C@@]1(C)[C@H](OCCN1CCCC1)C2 (racemic) [Compound 2a, (±)-1-(2-(1,7,7-Trimethylbicyclo(2.2.1)heptan-2-yloxy)ethyl)pyrrolidine]",4166,39
"CC1(C)[C@@H]2CC[C@@]1(C)[C@H](OCCN1CCCCC1)C2 (racemic) [Compound 3a, (±)-1-(2-(1,7,7-Trimethylbicyclo(2.2.1)heptan-2-yloxy)ethyl)piperidine]",150,30
"CC1(C)[C@@H]2CC[C@@]1(C)[C@H](OCCCN1CCCCC1)C2 (racemic) [Compound 3b, (±)-1-(3-(1,7,7-Trimethylbicyclo(2.2.1)heptan-2-yloxy)propyl)piperidine]",4,–
"CC1CCN(CCO[C@@H]2C[C@H]3CC[C@]2(C)C3(C)C)CC1 (racemic) [Compound 4a, (±)-4-Methyl-1-(2-(1,7,7-trimethylbicyclo(2.2.1)]heptan-2-yloxy)ethyl)piperidine]",357,–
"CC1(C)[C@@H]2CC[C@@]1(C)[C@H](OCCCN1CCN(Cc3ccccc3)CC1)C2 (racemic) [Compound 6b, (±)-1-Benzyl-4-(3-(1,7,7-trimethylbicyclo(2.2.1)heptan-2-yloxy)propyl)piperazine]",2,–
"CC1(C)[C@@H]2CC[C@@]1(C)[C@H](OCCN1CCOCC1)C2 (racemic) [Compound 7a, (±)-4-(2-(1,7,7-Trimethylbicyclo(2.2.1)heptan-2-yloxy)ethyl)morpholine]",1433,78
"CC1(C)[C@@H]2CC[C@@]1(C)[C@H](OCCN1CCCCCC1)C2 (racemic) [Compound 8a, (±)-1-(2-(1,7,7-Trimethylbicyclo(2.2.1)heptan-2-yloxy)ethyl)azepane]",6,–
